According to US20240174728A1 (Shenzhen Turier Biotech Co., Ltd., priority 2021, published 2024):

Assay: general procedure: Fmoc solid-phase peptide synthesis; Rink amide resin; benzotriazole-N,N,N',N'-tetramethyluronium hexafluorophosphate, 1-hydroxybenzotr
Conditions: whole synthesis, scale 0.25 mol

His-Aib-Gln-Gly-Thr-Phe-Thr-Ser-Asp-Lys(PEG2-PEG2-γGlu-CO(CH2)18CO2H)-Ser-Lys-Tyr-Leu-Glu-Aib-Lys-Ala-Ala-Gln-Asp-Phe-Val-Glu-Trp-Leu-Lys-Ala-Gly-Gly-Pro-Ser-Ser-Gly-Ala-Pro-Pro-Pro-Ser-NH2
final HPLC purity: >95%
